Measured values published in PubChem BioAssay AID1956 (SRMLSC, 2009).
This is a selection; strong and weak results do not stand in their true shares. Active and inactive are the calls of the source. Rule as the data show it: active = maximum fold increase above about 1.5; inconclusive = no clear call, values can overlap the other calls; inactive = below that; tested in PC3 cells.

Assay: compounds boosting herpes simplex virus growth – fold increase, host cell viability (AID 1956)
Conditions: HSV replication augmentation in cells; at 12.5 µM, active compounds read high

SMILES	maximum fold increase
O=C(OC1CN2CCC1CC2)C1c2ccccc2C=Cc2ccccc21 (stereo not drawn)	inactive
COc1ccc(C(=O)NCC2(N3CCOCC3)CCCCC2)cc1OC	inactive
c1ccc(CN2CCC(Nc3ccccc3)CC2)cc1	inactive
N#Cc1ccc(C(=O)NCC2(N3CCCCC3)CCCCC2)cc1	inactive
CCN1CCC(Nc2cccc(F)c2)CC1	inactive
CN(C)c1ccc(C(=O)NCC2(N3CCCCC3)CCCCC2)cc1	inactive
Fc1ccccc1NC1CCN(Cc2ccccc2)CC1	inactive
COc1cc(OC)cc(C(=O)NCC2(N3CCOCC3)CCCCC2)c1	inactive
CCC(CO)(C(=O)OC1CN2CCC1CC2)c1ccccc1 (stereo not drawn)	inactive
CCCOc1ccc(C)cc1CN(CCCl)CCCl	inactive
CCOc1ncccc1C(=O)NCC1(N2CCOCC2)CCCCC1	inactive: 1.1
CC(C)(C)OC(=O)N1CCC(Nc2ccccc2)CC1	inactive
O=C(NCC1(N2CCOCC2)CCCCC1)c1cc2ccccc2o1	inactive
N#CC1(Nc2ccccc2)CCN(Cc2ccccc2)CC1	inactive
O=C(OC1CN2CCC1CC2)C1c2ccccc2Oc2ccccc21 (stereo not drawn)	inactive
CCOC(=O)N1CCC(Nc2ccc(OC)cc2)CC1	inactive
COc1ccc(C(=O)NCC2(N3CCCCC3)CCCCC2)c(OC)c1OC	inactive
Cc1ccc(OCC(C)C)c(CN(CCCl)CCCl)c1	inactive
CCOc1ccc(C)cc1CN(CCCl)CCCl	inactive
COc1ccc(NC2CCN(CCc3ccccc3)CC2)c(OC)c1	inactive
O=C(NCC1(N2CCOCC2)CCCCC1)c1cc(=O)[nH]c2ccccc12	inactive
COc1ccc(NC2CCN(C(=O)OC(C)(C)C)CC2)cc1	inactive
CN1CCN(CCOC(=O)C(O)(c2ccccc2)c2ccccc2)CC1	inactive
N#CC1(Nc2ccccc2)CCN(CCc2ccccc2)CC1	inactive
CN1CCC(Nc2cccc(F)c2)CC1	inactive
CC(C)c1ccc(NC2CCN(C(=O)OC(C)(C)C)CC2)cc1	inactive
CN(C)c1cccc(C(=O)NCC2(N3CCCCC3)CCCCC2)c1	inactive
COc1ccc(CN(CCCl)CCCl)cc1Cl	inactive
